Data taken from patent US20240117402A1, “METHODS FOR (POLY) PEPTIDE TANDEM LIGATION AND CYCLIZATION” (Nanyang Technological University, priority 2021, published 2024).

Experiments:
A431 cells = assay: MTT cell viability assay, A431; format: cell-based; details: A431, 96 h, varying concentrations
MCF-7 cells = assay: MTT cell viability assay, MCF-7; format: cell-based; details: MCF-7, 96 h, varying concentrations

**Q.** How did the cytotoxic effect (A431 cells) turn out when “affibody 16: affibody ZEGFR with thiazolidine-capped N-terminal CG- and C-terminal -NGL (Thz-SEQ ID NO:38)” was run?
**A.** The cytotoxic effect was “little cytotoxic effect even at very high concentrations”.

**Q.** What about the cytotoxic effect (MCF-7 cells) of the same substance?
**A.** Its cytotoxic effect is “little cytotoxic effect even at very high concentrations”.
